Data source: PubChem BioAssay AID624099 (ICCB-Longwood, 2012)
Assay: 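Knock-downs relieving repression by E2 of an HPV18 LCR luciferase reporter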 (primary screen). System: human C33A cervical carcinoma cells (HPV-negative) stably expressing BPV1 E2 and an HPV18 LCR luciferase reporter. Reagents: siRNA pool against human genes, 40 nM. Time to read-out: 72 h. Measurement: 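HPV18 LCR reporter light per well, converted to plate-wise z-scores that exclude control wells, and averaged over triplicate plates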. Direction: mean z-score and z-score: higher = stronger reporter signal, weaker E2 silencing. Call rule: 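Mean z ≥ 2 together with z ≥ 2 in two or more of the three replicates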.
Shown is an unselected part of about 21,000 deposited reagents. 497 of all reagents (2.4%) were called active. 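Higher z means weaker E2 silencing; only reporter increases were scored, and knock-downs that hurt cell survival may mask genuine repressor factors.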 The numbers tell different reagents against one gene apart.

no.	target gene	reagent no.	mean z-score	z-score, replicate A	z-score, replicate B	z-score, replicate C	Call
1	TCEA3 (GeneID 6920)	1	-1.02	-0.91	-1.04	-1.11	inactive
2	TTLL12 (GeneID 23170)	1	-0.84	-0.83	-0.88	-0.79	inactive
3	METTL15 (GeneID 196074)	1	0.65	1.28	0.15	0.51	inactive
4	ERLEC1 (GeneID 27248)	1	0.77	1.08	0.72	0.51	inactive
5	LOC139116 (retired record) (GeneID 139116)	1	0.06	-0.14	0.15	0.17	inactive
6	OR4X2 (GeneID 119764)	1	0.06	0.08	0.05	0.06	inactive
7	MTCL2 (GeneID 140710)	1	1.34	1.14	1.52	1.36	inactive
8	MTCL2 (GeneID 140710)	2	0.34	0.23	0.42	0.38	inactive
9	ITPR3 (GeneID 3710)	1	-1.28	-1.55	-1.33	-0.95	inactive
10	CTBP1-DT (GeneID 92070)	1	-0.03	0.02	-0.19	0.09	inactive
11	NLRP4 (GeneID 147945)	1	2.87	3.22	3.07	2.32	active
12	ZNF502 (GeneID 91392)	1	0.72	0.78	0.55	0.84	inactive
13	MRPS22 (GeneID 56945)	1	0.13	-0.08	0.13	0.35	inactive
14	PLEKHG3 (GeneID 26030)	1	-0.73	-1.01	-0.5	-0.67	inactive
15	MMP1 (GeneID 4312)	1	0.85	1.04	0.97	0.55	inactive
16	SIRAL1 (GeneID 79607)	1	0.07	0.11	-0.22	0.32	inactive
17	LOC390633 (retired record) (GeneID 390633)	1	0.68	0.36	1.07	0.62	inactive
18	SRSF12 (GeneID 135295)	1	0.05	0.15	-0.05	0.05	inactive
19	LTBP1 (GeneID 4052)	1	-0.14	-0.19	-0.13	-0.09	inactive
20	SPIRE2 (GeneID 84501)	1	1.01	1.19	1.3	0.54	inactive
21	PLN (GeneID 5350)	1	-0.23	-0.25	-0.23	-0.2	inactive
22	H3C8 (GeneID 8355)	1	-0.77	-0.41	-0.72	-1.19	inactive
23	LOC392528 (retired record) (GeneID 392528)	1	-1.91	-2.09	-1.89	-1.75	inactive
24	GLYATL3 (GeneID 389396)	1	0.52	0.29	0.53	0.75	inactive
25	PRLH (GeneID 51052)	1	1.96	2.34	1.89	1.65	inactive
26	PHACTR3 (GeneID 116154)	1	0.87	0.78	1.21	0.64	inactive
27	PYY (GeneID 5697)	1	0.36	-0.19	0.59	0.68	inactive
28	CAPZB (GeneID 832)	1	-1.46	-1.6	-1.43	-1.36	inactive
29	F13B (GeneID 2165)	1	0.24	0.37	0.05	0.28	inactive
30	SLC2A10 (GeneID 81031)	1	0.23	0.35	-0.06	0.4	inactive
31	LOC400920 (retired record) (GeneID 400920)	1	0.7	0.58	0.53	0.98	inactive
32	DDX24 (GeneID 57062)	1	-0.91	-1.01	-0.64	-1.08	inactive
33	ABHD8 (GeneID 79575)	1	1.13	1.28	1.21	0.91	inactive
34	SCGB1D2 (GeneID 10647)	1	-0.05	0.43	-0.33	-0.24	inactive
35	GPR68 (GeneID 8111)	1	0.47	0.32	0.68	0.4	inactive
36	AKAP11 (GeneID 11215)	1		0.41	-0.21		inactive
37	LDB1 (GeneID 8861)	1	-1.48	-1.36	-1.46	-1.61	inactive
38	TPO (GeneID 7173)	1	-1.35	-1.28	-1.48	-1.28	inactive
39	TAS2R46 (GeneID 259292)	1	-1.22	-1.27	-1.17	-1.21	inactive
40	OR13C2 (GeneID 392376)	1	1.39	1.39	1.28	1.51	inactive
41	TUB (GeneID 7275)	1	-0.2	0.27	-0.36	-0.49	inactive
42	NDUFAF1 (GeneID 51103)	1	0.04	0.15	0.03	-0.07	inactive
43	AFF4 (GeneID 27125)	1	-0.71	-0.76	-0.43	-0.92	inactive
44	DPM2 (GeneID 8818)	1	-0.11	-0.05	0.04	-0.31	inactive
45	FAM95A (GeneID 90499)	1	0.22	0.31	0.4	-0.05	inactive
46	DNAJB6P1 (GeneID 387820)	1	0.95	0.82	1.04	0.99	inactive
47	SIK3 (GeneID 23387)	1	-0.1	0.04	-0.43	0.09	inactive
48	XCR1 (GeneID 2829)	1	-0.78	-0.89	-0.75	-0.69	inactive
49	NOP10 (GeneID 55505)	1	0.28	0.12	0.45	0.26	inactive
50	IRS1 (GeneID 3667)	1	0.15	0.32	-0.39	0.53	inactive
51	DNAAF10 (GeneID 116143)	1	-0.04	-0.09	-0.26	0.23	inactive
52	RFTN2 (GeneID 130132)	1	0.61	0.41	0.87	0.57	inactive
53	TAS2R50 (GeneID 259296)	1	-0.12	0.19	-0.27	-0.27	inactive
54	PGK2 (GeneID 5232)	1	0.03	0.07	-0.31	0.33	inactive
55	DLK1 (GeneID 8788)	1	0.7	0.12	0.96	1.01	inactive
56	ENPP5 (GeneID 59084)	1	-0.5	-0.61	-0.74	-0.17	inactive
57	LOC346521 (retired record) (GeneID 346521)	1	-0.32	0.04	-0.71	-0.28	inactive
